Paper PMC3166295 (PLoS ONE, 2011)

Key:
8H5 mAb [1] = test: Titration of phage displaying 12mer peptides on 8H5-coated microplates (phage ELISA); format: binding, murine; settings: phage displaying the peptide; 10^13 phage serially diluted, reacted 30 min with 8H5-coated microplates, detected with anti-phage
8H5 mAb [2] = test: Affinity determination by surface plasmon resonance (BIAcore); format: binding, murine; settings: for Kd: read-out: Kd (dissociation constant for 8H5), BIAcore, 8H5 mAb (19 µg/ml) captured on protein A CM-5 chip, peptide at five concentrations 75.8 to 758 nM, 20 µl/min, 2 min

| SMILES | 8H5 titer (Tod1.5): phage dilution yielding an OD value of 1.5 (8H5 mAb [1]) | Kd (8H5 mAb [2]) [nM] | affinity for 8H5 relative to the parental p125 (8H5 mAb [2]; multiple of the affinity of p125 (discussion)) [time] |
| --- | --- | --- | --- |
| CC(C)C[C@H](NC(=O)[C@H](C)NC(=O)[C@H](CCC(N)=O)NC(=O)[C@H](CCCCN)NC(=O)[C@@H](NC(=O)[C@H](CC(C)C)NC(=O)[C@H](CCC(=O)O)NC(=O)[C@@H](NC(=O)[C@@H](N)CC(=O)O)[C@@H](C)O)[C@@H](C)O)C(=O)N[C@@H](CCCNC(=N)N)C(=O)N[C@@H](CC(C)C)C(=O)N[C@H](C(=O)O)C(C)C [III-2a] | 3.27 | 28.4 |  |
| CC[C@H](C)[C@H](NC(=O)[C@@H](NC(=O)[C@H](CC(C)C)NC(=O)[C@H](CCC(=O)O)NC(=O)[C@@H](NC(=O)[C@@H](N)CCC(=O)O)[C@@H](C)O)[C@@H](C)O)C(=O)N[C@@H](C)C(=O)N[C@@H](C)C(=O)N[C@@H](CC(C)C)C(=O)N[C@@H](CCCCN)C(=O)N[C@@H](Cc1ccc(O)cc1)C(=O)N[C@H](C(=O)O)C(C)C [IV-1b] | 2.76 | 980 |  |
| CC[C@H](C)[C@H](NC(=O)[C@@H](NC(=O)[C@H](CC(C)C)NC(=O)[C@@H]1CCCN1C(=O)[C@@H](NC(=O)[C@@H](N)CCC(=O)O)[C@@H](C)O)[C@@H](C)O)C(=O)N[C@@H](C)C(=O)NCC(=O)N[C@@H](CC(C)C)C(=O)N[C@@H](CCCCN)C(=O)N[C@@H](CC(C)C)C(=O)N[C@@H](CCCCN)C(=O)O [V-1b] | 13.23 | 3.16 | 38 |
| CC[C@H](C)[C@H](NC(=O)[C@@H](NC(=O)[C@H](CC(C)C)NC(=O)[C@@H]1CCCN1C(=O)[C@@H](NC(=O)[C@@H](N)CC(=O)O)[C@@H](C)O)[C@@H](C)O)C(=O)N[C@@H](C)C(=O)NCC(=O)N[C@@H](CC(C)C)C(=O)N[C@@H](CCCCN)C(=O)N[C@@H](CC(C)C)C(=O)N[C@H](C(=O)O)C(C)C [II-1c] | 7.07 | 11.5 |  |
